Data as given in article PMC6902002, “Recognition and processing of branched DNA substrates by Slx1–Slx4 nuclease”.
For at least one entry, the source does not settle the construct or the ends of the probe. At least one verdict was read from the data and is not stated in words by the source.

System: Cg-Slx1-Slx4CCD WT (Candida glabrata)
Experiment: fluorescence anisotropy
Details: 2.5 mM Ca2+; Fluorescence anisotropy: 20 mM HEPES pH 7.5, 2.5 mM CaCl2, 100 mM NaCl, 0.1 mg/ml BSA, 25 C; 25 nM DNA, 0-500 nM protein; recombinant protein; label: 5'-fluorescein on X0-1, 3'-Cy5 on X0-4; folded or branched DNA

“ACGCTGCCGAATTCTACCAGTGCCTTGCTAGGACATCTTTGCCCACCTGCAGGTTCACCC / CGATAGTCGGATCCTCTAGACAGCTCCATGTAGCAAGGCACTGGTAGAATTCGGCAGCGT / GGGTGAACCTGCAGGTGGGCAAAGATGTCC [5'-flap substrate]”: binds.
